Measured values taken from paper PMC10686824, “Bacterial cGAS senses a viral RNA to initiate immunity”.
The exact form of at least one protein or probe is not confirmed. Protein sequences can lack the tags named with them.

Legend:
His6-MBP-Ssc-CdnE03 = biological target: T1, His6-MBP-Ssc-CdnE03 (UniProt P0DXA6); experiment: pull-down; details: total RNA of infected cells, bound RNA sequenced; recombinant protein; protein details: His6-MBP
T1 sequence (looked up, limits assumed): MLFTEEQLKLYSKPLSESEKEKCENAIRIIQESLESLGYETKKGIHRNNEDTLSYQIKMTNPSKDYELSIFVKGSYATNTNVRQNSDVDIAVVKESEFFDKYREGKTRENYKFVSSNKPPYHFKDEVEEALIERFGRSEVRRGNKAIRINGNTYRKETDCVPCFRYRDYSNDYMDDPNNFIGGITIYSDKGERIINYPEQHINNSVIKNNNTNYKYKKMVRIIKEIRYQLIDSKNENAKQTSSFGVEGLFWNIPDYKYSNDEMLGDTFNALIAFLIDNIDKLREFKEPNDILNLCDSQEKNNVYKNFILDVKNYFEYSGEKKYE

Ssc-CdnE03 = biological target: T2, Ssc-CdnE03 (UniProt P0DXA6); experiment: EMSA; details: EMSA: 50 mM CAPSO pH 9.4, 50 mM KCl, 5 mM Mg acetate, 1 mM DTT, 4 C 25 min, 2% agarose in 1x TB, pull-down on cobalt resin, recombinant protein
T2 sequence (looked up, limits assumed): T1 sequence (looked up, limits assumed)

AGAGGAGAACCUCAAGAGGCUUACAGUAAGAAAUAUGACCAUUUAAACGAUGAAGUGGAAAAAGAGGUUACUUACACAAUCACACCAACUUUUGAAGAGCGUCAGAGAUCUAUUGACCACAUACUAAAAGUACAUGGUGCGUAUAUCGAUAAAAAAGAAAUUACUCAGAAGAAUAUUGAGAUUAAUAUUGGUGAGUACGAUGACGAAAGUUAAAUUAAACUUUAACAAACCAUCUAAUGUUUUCAAUAGAAACAUAUUCGAAAUACUAACCAAUUACGAUAACUUCACUGAAGUACAUUACGGUGGAGGUUCGAGCGGUAAGUCUCACGGCGUUAUACAAAAAGUUGUACUUAAAGCAUUGCAAGACUGGAAAUAUCCUAGGCGUAUACUAUGGCUUAGA [cabRNA PhiNM1gamma6]
binding result (His6-MBP-Ssc-CdnE03): binds

AGAGGAGAACCUCAAGAGGCUUACAGUAAGAAAUAUGACCAUUUAAACGAUGAAGUGGAAAAAGAGGUUACUUACACAAUCACACCAACUUUUGAAGAGCGUCAGAGAUCUAUUGACCACAUACUAAAAGUUCAUGGUGCGUAUAUCGACAAAAAAGAAAUUACUCAGAAGAAUAUUGAGAUUAAUAUUGGUGAGUACGAUGACGAAAGUUAAAUUAAACUUUAACAAACCAUCUAAUGUUUUCAACAGAAACAUAUUCGAAAUACUAACCAAUUACGAUAACUUCACUGAAGUACAUUACGGUGGAGGUUCGAGUGGUAAGUCUCACGGCGUUAUACAAAAAGUUGUACUUAAAGCAUUGCAAGACUGGAAAUAUCCUAGGCGUAUACUAUGGCUUAGA [cabRNA (IVT, sense, folded)]
binding result (Ssc-CdnE03; 1 uM RNA, 0, 1, 10 uM protein): binds

AUGACUAAAAAGAAAUAUGGAUUAAAAUUAUCAACAGUUCGAAAGUUAGAAGAUGAGUUGUGUGAUUAUCCUAAUUAUCAUAAGCAACUCGAAGAUUUAAGAAGUGAAAUAAUGACACCAUGGAUUCCAACAGAUACAAAUAUAGGCGGGGAGUUUGUACCGUCUAAUACAUCGAAAACAGAAAUGGCAGUAACUAAUUAUCUUUGUAGUAUACGAAGAGGUAAAAUCCUUGAGUUUAAGAGCGCUAUUGAACGUAUAAUCAACACAUCAAGUAGGAAAGAACGCGAAUUCAUUCAAGAGUAUUAUUUUAAUAAAAAGGAAUUAGUGAAAGUUUGUGAUGACAUACACAUUUCUGAUAGAACUGCUCAUAGAAUCAAAAGGAAAAUCAUAUCUAGAUUGGCGGAAGAGUUAGGGGAAGAGUGAAAUUGGCAGUAAAGUGGCAGUUUUUGAUACCUAAAAUGAGAUAUUAUGAUAGUGUAGGAUAUUGACUAUCUUACUGCGUUUCCCUUAUCGCAAUUAGGAAUAAAGGAUCUAUGUGGGUUGGCUGAUUAUAGCCAAUCCUUUUUUAAUUUUAAAAAGCGUAUAGCGCGAGAGUUGGUGGUAAAUGAAAUGAACGAAAAACAAAAGAGAUUCGCAGAUGAAUAUAUAAUGAAUGGAUGUAAUGGUAAAAAAGCAGCAAUUUCAGCAGGUUAUAGUAAGAAAACAGCAGAGUCUUUAGCAAGUCGAUUGUUAAGAAAUGUUAAUGUUUCGGAAUAUAUUAAAGAACGAUUAGAACAGAUACAAGAAGAGCGUUUAAUGAGCAUUACAGAAGCUUUAGCGUUAUCUGCUUUUAUUGCUAGAGGAGAACCUCAAGAGGCUUACAGUAAGAAAUAUGACCAUUUAAACGAUGAAGUGGAAAAAGAGGUUACUUACACAAUCACACCAACUUUUGAAGAGCGUCAGAGAUCUAUUGACCACAUACUAAAAGUUCAUGGUGCGUAUAUCGACAAAAAAGAAAUUACUCAGAAGAAUAUUGAGAUUAAUAUUGGUGAGUACGAUGACGAAAGUUAAAUUAAACUUUAACAAACCAUCUAAUGUUUUCAACAGAAACAUAUUCGAAAUACUAACCAAUUACGAUAACUUCACUGAAGUACAUUACGGUGGAGGUUCGAGUGGUAAGUCUCACGGCGUUAUACAAAAAGUUGUACUUAAAGCAUUGCAAGACUGGAAAUAUCCUAGGCGUAUACUAUGGCUUAGA [escaper (long) cabRNA, terS S74F, 1237 nt]
binding result (His6-MBP-Ssc-CdnE03): binds
binding result (Ssc-CdnE03; similar level to cabRNA, small preference for the short form, 1 uM RNA): binds

AGAGGAGAACCUCAAGAGGCUUACAGUAAGAAAUAUGACCAUUUAAACGAUGAAGUGGAAAAAGAGGUUACUUACACAAUCACACCAACUUUUGAAGAGCGUCAGAGAUCUAUUGACCACAUACUAAAAGUUCAUGGUGCGUAUAUCGACAAAAAAGAAAUUACUCAGAAGAAUAUUGAGAUUAAUAUUGGUGAGUACGAUGACGAAAGUUAAAUUAAACUUUAACAAACCAUCUAAUGUUUUCAACAGAAACAUAUUCGAAAUACUAACCAAUUACGAUAACUUCACUGAAGUACAUUACGGUGGAGGUUCGAGUGGUAAGUCUCACGGCGUUAUACAAAAAGUUGUACUUAAAGCAUUGCAAGACUGGAAAUAUCCUAGGCGUAUACUAUGGCUUAGA [cabRNA (from infected cells, 80alpha-vir)]
binding result (His6-MBP-Ssc-CdnE03): binds
